# PubChem BioAssay AID624099, ICCB-Longwood | 2012
# Aim: 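Host factors E2 relies on to silence an HPV18 LCR reporter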 (primary screen)
# Cells: human C33A cervical carcinoma cells (HPV-negative) stably expressing BPV1 E2 and an HPV18 LCR luciferase reporter
# Knock-down reagent: siRNA pool against human genes, 40 nM
# Timing: 72 h
# Detection: 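HPV18 LCR reporter light per well, converted to plate-wise z-scores that exclude control wells, and averaged over triplicate plates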
# Reading the numbers: mean z-score and z-score: higher = stronger reporter signal, weaker E2 silencing
# Rule for the call: 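Mean z ≥ 2 together with z ≥ 2 in two or more of the three replicates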
# This is a random part of about 21,000 reagents. In the full data, 497 (2.4%) were called active. 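Higher z means weaker E2 silencing; only reporter increases were scored, and knock-downs that hurt cell survival may mask genuine repressor factors.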
gene,mean z-score,"z-score, replicate A","z-score, replicate B","z-score, replicate C",outcome
PGLYRP2 (peptidoglycan recognition protein 2),-0.78,-1.03,-0.64,-0.68,inactive
ZNF383 (zinc finger protein 383),0.2,0.05,0.55,0,inactive
TMEM69 (transmembrane protein 69),0.37,0.35,0.37,0.39,inactive
HEATR3 (HEAT repeat containing 3),0.12,0.03,0.07,0.24,inactive
ZNF319 (zinc finger protein 319),-0.4,0,-0.41,-0.77,inactive
TAS2R19 (taste 2 receptor member 19),-0.36,-0.14,-0.55,-0.4,inactive
OAS3 (2'-5'-oligoadenylate synthetase 3),-0.38,-0.57,-0.58,0,inactive
LINC01667 (long independently transcribed non-coding RNA 1667),0.39,0.23,0.52,0.42,inactive
"PPM1E (protein phosphatase, Mg2+/Mn2+ dependent 1E)",-0.34,-0.62,-0.46,0.08,inactive
EPHA1 (EPH receptor A1),0.7,1.32,0.72,0.06,inactive
CSN3 (casein kappa),-0.73,-1.12,-0.65,-0.41,inactive
LOC285031 (retired record),0,0.01,0.24,-0.26,inactive
OR3A2 (olfactory receptor family 3 subfamily A member 2),-0.01,-0.07,-0.3,0.34,inactive

The list goes on (4 carried over from the part before).
gene,mean z-score,"z-score, replicate A","z-score, replicate B","z-score, replicate C",outcome
EPHA1 (EPH receptor A1),0.7,1.32,0.72,0.06,inactive
CSN3 (casein kappa),-0.73,-1.12,-0.65,-0.41,inactive
LOC285031 (retired record),0,0.01,0.24,-0.26,inactive
OR3A2 (olfactory receptor family 3 subfamily A member 2),-0.01,-0.07,-0.3,0.34,inactive
HBQ1 (hemoglobin subunit theta 1),-1.71,-1.77,-1.84,-1.53,inactive
TM4SF20 (transmembrane 4 L six family member 20),0.13,0.38,0.4,-0.39,inactive
ARL13B (ARF like GTPase 13B),-0.22,-0.19,-0.09,-0.37,inactive
CPA5 (carboxypeptidase A5),-1.22,-1.61,-0.97,-1.08,inactive
RIMBP3 (RIMS binding protein 3),-0.37,-1.03,-0.17,0.1,inactive
WDFY1 (WD repeat and FYVE domain containing 1),0.19,-0.13,-0.08,0.78,inactive
RPS11 (ribosomal protein S11),-1.83,-1.68,-1.98,-1.82,inactive
RND3 (Rho family GTPase 3),-1.12,-1.45,-0.87,-1.04,inactive
PPEF1 (protein phosphatase with EF-hand domain 1),0.92,0.83,1.12,0.8,inactive
CCDC85B (coiled-coil domain containing 85B),-0.96,-0.75,-0.9,-1.23,inactive
PDCL2 (phosducin like 2),0.49,0.57,0.36,0.53,inactive
LOC441534 (retired record),-0.06,-0.36,0.01,0.17,inactive
CMTM7 (CKLF like MARVEL transmembrane domain containing 7),1.12,1.08,1.1,1.18,inactive
PRELP (proline and arginine rich end leucine rich repeat protein),-0.87,-0.54,-0.97,-1.1,inactive
MYH14 (myosin heavy chain 14),0.46,0.43,0.26,0.68,inactive
RPL35P7 (ribosomal protein L35 pseudogene 7),-1.44,-0.81,-1.46,-2.06,inactive
LOC387643 (retired record),-0.54,-0.79,-0.63,-0.2,inactive
RECQL (RecQ like helicase),1.6,1.47,1.54,1.78,inactive
SLC25A47,-1.35,-1.41,-1.41,-1.24,inactive
LOC389651 (retired record),1.09,0.95,1.18,1.13,inactive
FAM156A (family with sequence similarity 156 member A),0.2,0.17,0.31,0.12,inactive
UBR2 (ubiquitin protein ligase E3 component n-recognin 2),0.25,0.27,0.31,0.15,inactive
GRP (gastrin releasing peptide),-0.53,-0.54,-0.43,-0.62,inactive
"CRKL (CRK like proto-oncogene, adaptor protein)",1.18,1.71,0.69,1.14,inactive
NIPAL1 (NIPA like domain containing 1),-0.93,-1.14,-0.73,-0.91,inactive
BRI3BP (BRI3 binding protein),-0.87,-0.58,-0.93,-1.09,inactive
